Results of unrelated studies side by side (data: NIAID ChemDB).

All rows: growth or infection tests; agent: HIV-1; endpoint: EC50

Conditions beyond the fields shown may differ between rows.

structure	cell line	strain	mutations	conditions	result
COC(=O)N[C@H](C(=O)N[C@@H](Cc1ccccc1)[C@@H](O)CN(Cc1ccc(-c2ccccn2)cc1)NC(=O)[C@@H](NC(=O)OC)C(C)(C)C)C(C)(C)C	MT-4	NL4-3	L10F M46I I54V V82A LPV resistant	-	0.033 µM
Cc1cn([C@H]2C=C[C@@H](CO)O2)c(=O)[nH]c1=O	MT-4	NL4-3	+Vpx	-	2.376 µM
Cc1ccnc2c1NC(=O)c1cccnc1N2C1CC1	PBMC	BCF01	RT-A98G K103R Y181C	-	15 µM
CC(C)(C)NC(=O)[C@@H]1C[C@@H]2CCCC[C@@H]2CN1C[C@@H](O)[C@H](Cc1ccccc1)NC(=O)[C@H](CC(N)=O)NC(=O)c1ccc2ccccc2n1	PBMC	Clinical isolate	L10I K14R L33I M36I M46I F53I K55R I62V L63P A71V G73S V82A L90M I93L	multidrug-resistant	0.35 µM
O=C(Nc1cc(S(=O)(=O)O)cc2cc(S(=O)(=O)O)c(N=Nc3ccc(N=Nc4c(S(=O)(=O)O)cc5cc(S(=O)(=O)O)cc(NC(=O)c6cccc(Cl)c6Cl)c5c4O)cc3)c(O)c12)c1ccc(Cl)cc1Cl	MONO/MACRO + Monocytes/macrophages	BaL	-	-	0.22 µg/mL
CC(C)=CCN1Cc2cc(Cl)cc3[nH]c(=S)n(c23)C[C@@H]1C	MT-4	-	RT-K70R K101E	-	<3 µM
CC(C)CN(C[C@@H](O)[C@H](Cc1ccccc1)NC(=O)O[C@H]1CCOC1)S(=O)(=O)c1ccc(N)cc1	MT-4	NL4-3	M46I I50V N38K M36I GRL05010-resistant	-	>1 µM
Nc1nc(NC2CC2)c2ncn([C@H]3C=C[C@@H](CO)C3)c2n1	Primary T lymphocytes	NL4-3	-	-	0.015 µM
Cc1cc(C)c2ccccc2c1-n1c(C)nnc1SCC(=O)Nc1ccc(S(N)(=O)=O)cc1Cl	HeLa	-	Y188L	-	0.004 µM
CO[P@](=O)(c1cc(C)cc(/C=C/C#N)c1)c1c(C(N)=O)[nH]c2ccc(Cl)c(F)c12	PBMC	-	K103N/Y181C	-	0.0027 µM
Nc1nc(N)c2ncn([C@H]3CO[C@@H](CO)O3)c2n1	MT-2	-	RT-M41L K70R T215Y K219Q	-	6.4 µM
Cc1cn([C@H]2C[C@H](N=[N+]=[N-])[C@@H](CO)O2)c(=O)[nH]c1=O	PBMC	MVP5180 (RT A98G K103R)	RT-A98G K103R	-	<0.01 µM
CC(C)(C)OC(=O)N[C@@H](Cc1ccccc1)[C@H](O)CNC[C@@H](O)[C@H](Cc1ccc(OCC(=O)N2CCOCC2)cc1)NC(=O)OC(C)(C)C	MT-2	RF	PR-G48V I54V A71T V82A	-	3.08 µM
Cc1ccc2c(C)ccnc2c1-n1c(C)nnc1SCC(=O)Nc1ccc(S(N)(=O)=O)cc1Cl	HeLa	-	-	-	0.0006 µM
O=c1[nH]cnc2c1ncn2[C@H]1CC[C@@H](CO)O1	PBMC	VAU (RT-A98G)	RT-A98G	-	0.5 µM
Cc1cc2c(C)ccc(-n3c(C)nnc3SCC(=O)Nc3ccccc3Br)c2cc1C	HeLa	-	Y188L	-	0.11 µM
Nc1ccn([C@H]2CC[C@@H](CO)O2)c(=O)n1	Primary T lymphocytes	NL4-3	-	-	0.115 µM
Cc1nnc(SCC(=O)Nc2ccc(S(N)(=O)=O)cc2Cl)n1-c1cccc2cc(Br)cnc12	HeLa	-	Y188L	-	0.191 µM
Cc1ccnc2c1NC(=O)c1cccnc1N2C1CC1	MT-4	NL4-3	-	-	0.237 µM

The last 2 rows once more:

| structure | cell line | strain | mutations | conditions | result |
|---|---|---|---|---|---|
| Cc1nnc(SCC(=O)Nc2ccc(S(N)(=O)=O)cc2Cl)n1-c1cccc2cc(Br)cnc12 | HeLa | - | Y188L | - | 0.191 µM |
| Cc1ccnc2c1NC(=O)c1cccnc1N2C1CC1 | MT-4 | NL4-3 | - | - | 0.237 µM |

An empty or dashed field is not shown. ECn: concentration that inhibits the pathogen or its effect by n%.